Pooled drug test results. Numbers come from NIAID ChemDB, via PubChem.

Common to all: tests in culture; species: Candida albicans; endpoint: MIC

An empty or dashed field is not shown.

SMILES,strain,value
CC(=O)c1cc2c(nc1C)CCCCCC2,-,25 µg/mL
CC[C@H](C)n1ncn(-c2ccc(N3CCN(c4ccc(OC[C@@H]5CO[C@@](Cn6cncn6)(c6ccc(F)cc6F)C5)cc4)CC3)cc2)c1=O,C-43,0.0039 µg/mL
Fc1cc(C2=Nn3c(CNc4ccc(Cl)cc4)nnc3S/C2=C\c2ccc(Cl)cc2Cl)c(Cl)cc1Cl,-,6 µg/mL
CCOc1cc2c(cc1F)n([O-])c(C)c(Cl)[n+]2=O,Clinical isolate 22,31.25 µg/mL
c1noc2c1CCCCCC2,-,25 µg/mL
CCCCCSc1cc(C(N)=S)ccn1,176,50 µg/mL
COc1ccc(/C=C(\C#N)c2nc3ccccc3o2)cc1OC,-,>200 µg/mL
Cc1c(Cl)[n+](=O)c2cc(Cl)ccc2n1[O-],Clinical isolate 10,7.8 µg/mL
COc1ccc(/C=C2\Sc3nnc(CNc4ccccc4)n3N=C2c2cc(F)c(Cl)cc2Cl)cc1OC,-,12.5 µg/mL
N#C/C(=N\Nc1ccc(Cl)cc1)c1nc2ccccc2o1,-,>200 µg/mL
CCCCCCCCSc1cc(C(N)=S)ccn1,42,50 µg/mL
N#Cc1cc2c([nH]c1=O)CCCCCC2,-,50 µg/mL
CCCSc1nc(Cl)c(C#N)c(-c2cccc(F)c2)n1,-,>100 µg/mL
CCCSc1cc(C(N)=S)ccn1,3a,100 µg/mL
Nc1c(-c2nc3ccccc3o2)sc(=S)n1-c1ccccc1,-,>200 µg/mL
CCCCCCCCCCCCCSc1cc(C(N)=S)ccn1,176,200 µg/mL
CCC(C)CC(C)CCCCCCCCC(=O)N[C@H]1C[C@@H](O)[C@H](NCCN)NC(=O)[C@@H]2[C@@H](O)CCN2C(=O)[C@H]([C@H](O)CCN)NC(=O)[C@H]([C@H](O)[C@@H](O)c2ccc(O)cc2)NC(=O)[C@@H]2C[C@@H](O)CN2C(=O)[C@H]([C@@H](C)O)NC1=O,T25,2 µg/mL
Cc1c(S(=O)(=O)c2ccccc2)[n+](=O)c2cc(Cl)ccc2n1[O-],Clinical isolate 23,15.6 µg/mL
Cc1cc(OCc2nnc3n2N=C(c2cc(F)c(Cl)cc2Cl)/C(=C/c2ccc(Cl)cc2Cl)S3)ccc1Cl,-,12.5 µg/mL
CCOc1cc2c(cc1F)n([O-])c(C)c(S(=O)(=O)c1ccccc1)[n+]2=O,Clinical isolate 13,15.6 µg/mL
Fc1cc(C2=Nn3c(COc4ccc(Cl)cc4)nnc3S/C2=C\c2ccc3c(c2)OCO3)c(Cl)cc1Cl,-,6 µg/mL
C[C@H](N)C(=O)NC(C(=O)O)n1cc(F)c(=O)[nH]c1=O,3153A,25 µg/mL
Nc1c(-c2nc3ccccc3o2)sc(=S)n1-c1ccc(Cl)cc1,-,<200 µg/mL
O=C(Nc1ccc(-c2nc3ccccc3[nH]2)cc1)c1cccc(Cl)c1,ATCC 10231,25 µg/mL
CC1=CC[C@@H]2[C@H](C1)C2(C)C,ATCC 10231,0.32–0.64 µg/mL
C[C@H](N)C(=O)N[C@H](C(=O)O)n1cc(F)c(=O)[nH]c1=O,B311,12.5 µg/mL
Nc1ccc(-c2nc3ccccc3[nH]2)cc1,ATCC 10231,25 µg/mL
CC[C@@H](C)n1ncn(-c2ccc(N3CCN(c4ccc(OC[C@H]5CO[C@](Cn6cncn6)(c6ccc(F)cc6F)C5)cc4)CC3)cc2)c1=O,C-43,0.0313 µg/mL
C[C@@H](c1ncncc1F)[C@](O)(Cn1cncn1)c1ccc(F)cc1F,Isolate 2183,0.06 µg/mL
CCCSc1nc(Cl)c(C#N)c(-c2cccs2)n1,-,>100 µg/mL
Clc1ccc(/C(Cn2ccnc2)=N\Nc2c(Cl)cccc2Cl)s1,A,6.2 µg/mL
Cc1ccc(C(=O)Nc2ccc(-c3nc4ccccc4[nH]3)cc2)cc1,ATCC 10231,25 µg/mL
CC(C)N=C(N)c1ccc2nc(-c3ccc4c(c3)Cc3cc(-c5nc6ccc(C(N)=NC(C)C)cc6[nH]5)ccc3-4)[nH]c2c1,Isolate CA1548,1.56 µg/mL
O=[n+]1c(Sc2ccccc2)c(CBr)n([O-])c2ccccc21,Clinical isolate 2,15.6 µg/mL
COc1ccc(C2C(C#N)=C(N)N3C(=C2C#N)Oc2ccccc23)cc1,-,>200 µg/mL
Fc1ccc(NCc2nnc3n2N=C(c2cc(F)c(Cl)cc2Cl)/C(=C/c2ccc4c(c2)OCO4)S3)cc1Cl,-,12.5 µg/mL
O=C(Nc1ccc(-c2nc3ccccc3[nH]2)cc1)c1ccccc1Cl,ATCC 10231,25 µg/mL

The first 3 rows once more:

SMILES,strain,value
CC(=O)c1cc2c(nc1C)CCCCCC2,-,25 µg/mL
CC[C@H](C)n1ncn(-c2ccc(N3CCN(c4ccc(OC[C@@H]5CO[C@@](Cn6cncn6)(c6ccc(F)cc6F)C5)cc4)CC3)cc2)c1=O,C-43,0.0039 µg/mL
Fc1cc(C2=Nn3c(CNc4ccc(Cl)cc4)nnc3S/C2=C\c2ccc(Cl)cc2Cl)c(Cl)cc1Cl,-,6 µg/mL

Rows are shuffled and stem from different studies. Two numbers with a dash give a range or band.